Measurements: patent publication US7803788B2, “Prodrugs of phosphonate nucoleotide analogues” (Gilead Sciences, Inc., priority 2000, dated 2010)

System: HIV-1
Assay: In vitro anti-HIV-1 activity in MT-2 cells
Details: read-out: HIV IC50; Table 5 (selected IC50 data from Table 4)

## CC(C)OC(=O)OCOP(=O)(CO[C@H](C)Cn1cnc2c(N)ncnc21)OCOC(=O)OC(C)C [compound 7]
  IC50: 50 nM
